{"source": "patent US20220079962A1", "about": "“NUTRITIONAL COMPOSITION COMPRISING 2'FUCOSYLLACTOSE AND DIETARY BUTYRATE” (N.V. Nutricia, priority 2019, published 2022)", "tested_on": "infant intestinal microbiota", "assay": "quad-SHIME model of infant intestinal microbiota (SCFA, glycoprofile)", "parameters": "species or system human", "excerpt": "A faecal sample from a healthy infant born via C-section, exclusively breastfed with no history of antibiotic usage, was used as inoculum to simulate the infant intestinal microbiota in the colon compartments of a quad-SHIME®—a dynamic model of the human gastrointestinal tract comprises 4 SHIME® units running in parallel and each SHIME® unit is composed of 3 reactors simulating the stomach and small intestine, proximal and distal colons."}
{"smiles": "C[C@@H]1O[C@@H](O[C@H]2[C@H](O[C@H]3[C@H](O)[C@@H](O)C(O)O[C@@H]3CO)O[C@H](CO)[C@H](O)[C@@H]2O)[C@@H](O)[C@H](O)[C@@H]1O", "note": "(stereo partly drawn) [2′-FL, α-L-Fuc-(1→2)-β-D-Gal-(1→4)-D-Glc]", "values": [{"measurement": "metabolism of 2′-FL by microbiota (glycoprofile)", "setting": "in the presence of scGOS/IcFOS", "result": "slowly metabolised across the proximal and distal colon"}, {"measurement": "metabolism of 2′-FL by microbiota (glycoprofile)", "setting": "supplemented alone", "result": "not metabolized"}]}
